Anti-infective test results gathered from many reports (values: NIAID ChemDB through PubChem).

All rows: tests in culture; organism: Candida albicans

Conditions beyond the fields shown may differ between rows. ECn is the concentration giving n% inhibition of infection, replication or growth. An empty or dashed field is not shown. A number after MIC or MFC names an inhibition level or a share of isolates.

smiles | setting | endpoint | read by | strain | result
COc1ccc2c(Cc3ccc(C(C)(C)C)cc3)c3[n+](cc2c1OC)CCc1cc2c(cc1-3)OCO2 |  | MIC |  | ATCC44373 | 1.56 µg/mL
c1coc(-c2n[nH]c(COc3ncnc4ccccc34)n2)c1 |  | MIC100 |  | MTCC 227 | 6.25 µg/mL
O=[N+]([O-])c1ccc(N2CCN(CCc3nnn(CC(O)(Cn4cncn4)c4ccc(F)cc4F)n3)CC2)cc1 |  | MIC |  | V-01-191A-261 (resistant) | 8 µg/mL
CCCCCCCCOc1ccc(C(=O)NC2C[C@@H](O)[C@@H](O)NC(=O)C3[C@@H](O)[C@@H](C)CN3C(=O)C(C(C)O)NC(=O)C([C@H](O)[C@@H](O)c3ccc(O)cc3)NC(=O)C3C[C@@H](O)CN3C(=O)C(C(C)O)NC2=O)cc1 |  | MIC |  | MY1028 | 0.5 µg/mL
Clc1ccc(C(Cn2ccnc2)OC/C=C/c2ccccc2)c(Cl)c1 |  | MIC |  | Y0109 | 4 µg/mL
CCCCCCCCC(=O)[C@H]1O[C@H]1C(=O)N(CC)CC |  | MIC |  | F2 sensitive | 6.25 µg/mL
COc1ccc(CN2C[C@H](OC[C@@]34C[C@@H]5[C@H](C)CC[C@H]5[C@@]5(C=O)C[C@@H]3CC(C(C)C)[C@@]45C(=O)O)O[C@H](C)C2)cc1 |  | MIC90 |  | 16 isolates/fluconazole resistant | 0.002 µg/mL
CCCCC/C=C/CCC(=O)[C@H]1O[C@H]1C(=O)N(CC)CC |  | MIC |  | F2 sensitive | 6.25 µg/mL
C[C@@H](c1ncncc1F)[C@](O)(Cn1cncn1)c1ccc(F)cc1F | pH 7 | EC90 | broth dilution | 10 isolates | 0.5 µg/mL
CCCCCCCCOC[N+](C)(C)Cc1cc(N=Nc2ccc(Cl)cc2)ccc1O |  | MBC |  |  | 534 µM
C[C@H]1[C@H](O)[C@@H](C)/C=C/C=C/C=C/C=C/C=C/C=C/C=C/[C@H](O[C@@H]2O[C@H](C)[C@@H](O)[C@H](N)[C@@H]2O)C[C@@H]2O[C@](O)(C[C@@H](O)C[C@@H](O)CC[C@H](O)[C@@H](O)C[C@@H](O)CC(=O)O[C@H]1C)C[C@H](O)[C@H]2C(=O)O |  | EC50 | broth dilution | 32 | 2 µM
CC[C@@H]([C@H](C)O)n1ncn(-c2ccc(N3CCN(c4ccc(OC[C@@H]5CO[C@@](Cn6cncn6)(c6ccc(F)cc6F)C5)cc4)CC3)cc2)c1=O |  | MIC90 |  | 84 isolates | 0.25 µg/mL
C[C@H](n1nnnc1CCN1CCN(c2ccccn2)CC1)[C@](O)(Cn1cncn1)c1ccc(F)cc1F |  | MIC |  | V-01-191A-261 (resistant) | 8 µg/mL
C[N+](C)(COCCCC1CCCCC1)Cc1cc(N=Nc2ccc(Cl)cc2)ccc1O |  | MIC |  |  | 129 µM
O=Cc1cc(-c2c(Cl)cccc2Cl)no1 |  | EC50 |  |  | 17.42 µg/mL
Cc1nc(OCc2nc(-c3ccc(O)cc3)n[nH]2)c2ccccc2n1 |  | MIC100 |  | MTCC 227 | 12.5 µg/mL
CC(C)N=C(N)c1ccc2nc(-c3ccc4c(c3)Cc3cc(-c5nc6ccc(C(N)=NC(C)C)cc6[nH]5)ccc3-4)[nH]c2c1 |  | MIC |  | Isolate 2281 | 1.56 µg/mL
NC(N)=N/N=C/c1ccc(-c2cc3ccc(/C=N/N=C(N)N)cc3s2)cc1 |  | MIC |  |  | >60 µg/mL
CCCCCCCCCCCCCCCC(=O)N[C@H]1C[C@@H](O)[C@@H](O)NC(=O)[C@@H]2[C@@H](O)[C@@H](C)CN2C(=O)[C@H]([C@@H](C)O)NC(=O)[C@H]([C@H](O)[C@@H](O)c2ccc(O)cc2)NC(=O)[C@@H]2C[C@@H](O)CN2C(=O)[C@H]([C@@H](C)O)NC1=O |  | MIC50 |  | FP578 | 0.008 µg/mL
CC1CCC(C(C)C)C(OC(=O)c2cccc(Br)c2)C1 |  | MIC |  |  | 9.12 µM
Cc1nc(OCc2nc(-c3ccco3)n[nH]2)c2ccccc2n1 |  | MIC100 |  | MTCC 227 | 12.5 µg/mL
O=Cc1cc(-c2ccc(F)cc2)no1 |  | MIC |  |  | 50 µg/mL
Clc1ccccc1C(c1ccccc1)(c1ccccc1)n1ccnc1 | pH 5 | EC90 | broth dilution | 10 isolates | 0.25 µg/mL
CCCCCOc1ccc(CON2C(N)=NC(N)=NC2(C)C)cc1 |  | MIC |  |  | 30 µg/mL
COc1cc(O)c2c(c1)C(=O)c1c(cc3c(c1O)-c1c(cc(C)c(C(=O)NC(CO)C(=O)O)c1O)[C@H](OC1OC(C)C(O)C(OC4OCC(O)C(O)C4O)C1O)C3O)C2=O |  | MIC |  | DARL82/003 (azole-resistant) | 2 µg/mL
C=CCN1C[C@H](OC[C@@]23C[C@@H]4[C@H](C)CC[C@H]4[C@@]4(C=O)C[C@@H]2CC(C(C)C)[C@@]34C(=O)O)O[C@H](C)C1 |  | MIC50 |  | 16 isolates/fluconazole resistant | 0.03 µg/mL
Cc1ccc(C(Cn2ccnc2)OCc2ccc(C(C)(C)C)cc2)cc1 |  | MIC |  | CA6 | 64 µg/mL
C=C(CN1CCN(C)CC1)C(=O)c1ccc(Cl)cc1 |  | MIC |  |  | 64 µg/mL
C/C=C/CN=C(N)NCCCCCCCN1CCCCCCCCN=C(N)NC1=O |  | MIC50 |  | 15T | 1.25 µM
CCC(C)CC(C)CCCCCCCCC(=O)NC1C[C@H](O)[C@@H](O)NC(=O)[C@@H]2[C@@H](O)[C@@H](C)CN2C(=O)[C@H]([C@H](O)CC(N)=O)NC(=O)[C@H](C(O)[C@H](O)c2ccc(O)cc2)NC(=O)[C@@H]2C[C@@H](O)CN2C(=O)[C@H]([C@@H](C)O)NC1=O |  | MIC |  | MY1750 | 1 µg/mL
CCCCCCOc1ccccc1CON1C(N)=NC(N)=NC1(C)C |  | MIC |  |  | >240 µg/mL
COC(=O)[C@H]1[C@@H]2C[C@@H](O[C@@H]3O[C@H](C)[C@@H](O)[C@H](N)[C@@H]3O)/C=C/C=C/C=C/C=C/C=C/C=C/C=C/[C@H](C)[C@@H](O)[C@H](C)[C@H](C)OC(=O)C[C@H](O)C[C@H](O)[C@@H](O)CC[C@H](O)C[C@H](O)C[C@](O)(C[C@@H]1O)O2 | pH 7 | MIC | broth dilution | 15 isolates | 0.25 µg/mL
Cc1ccc(-c2cc(C=O)no2)cc1 |  | EC50 |  |  | 37.36 µg/mL
Clc1ccc(C(Cn2ccnc2)OCc2cccc3ccccc23)cc1 |  | MIC |  | PR1 | >128 µg/mL
CC1CCC(C(C)C)C(OC(=O)c2cccc(Cl)c2)C1 |  | MIC |  |  | 10.72 µM
CC(C)(C)c1ccc(COC(Cn2ccnc2)c2ccc(Cl)cc2)cc1 |  | MIC |  | Y0109 | >128 µg/mL
C=C(CF)CN1C[C@H](OC[C@@]23C[C@@H]4[C@H](C)CC[C@H]4[C@@]4(C=O)C[C@@H]2CC(C(C)C)[C@@]34C(=O)O)O[C@H](C)C1 |  | MIC50 |  | 16 isolates | 0.004 µg/mL
C(=C\c1cc2cc(C3=NCCN3)ccc2o1)/c1ccc(C2=NCCN2)cc1 |  | MIC |  |  | >60 µg/mL
Clc1ccc(C(Cn2ccnc2)OCc2cccc3ccccc23)c(Cl)c1 |  | MIC |  | CA7 | 4 µg/mL
OC(CN1CCN(c2ccc(OCc3ccncc3)cc2)CC1)(Cn1cncn1)c1ccc(F)cc1F |  | MIC80 |  | 17 | 2 µg/mL
CCCCCCCCCCCOC[N+](C)(C)Cc1cc(N=Nc2ccc(Cl)cc2)ccc1O |  | MIC |  |  | 490 µM
C=C(CN1CCOCC1)C(=O)c1ccccc1 |  | MIC |  |  | 16 µg/mL
Cc1nc(OCc2nc(-c3ccc(Br)cc3)n[nH]2)c2ccccc2n1 |  | MIC100 |  | MTCC 227 | 12.5 µg/mL
COc1ccccc1N1CCN(CCc2nnn(CC(O)(Cn3cncn3)c3ccc(F)cc3F)n2)CC1 |  | MIC |  | V-01-191A-261 (resistant) | 8 µg/mL
Cc1onc(-c2ccc(F)cc2)c1C=O |  | EC50 |  |  | 47.61 µg/mL
N=C(N)c1ccc(-c2cnc(-c3ccc(C(=N)N)cc3)[nH]2)cc1 |  | MIC |  |  | >60 µg/mL
CC(C)=CCN=C(N)NCCCCCCCN1CCCCCCCCN=C(N)NC1=O |  | MIC50 |  | 4T | 20 µM
C[C@H]1[C@H](O)[C@@H](C)/C=C/C=C/C=C/C=C/C=C/C=C/C=C/[C@H](O[C@@H]2O[C@H](C)[C@@H](O)[C@H](N)[C@@H]2O)C[C@@H]2O[C@](O)(C[C@@H](O)C[C@@H](O)CC[C@H](O)[C@@H](O)C[C@@H](O)CC(=O)O[C@H]1C)C[C@H](O)[C@H]2C(=O)O | clinical isolate | MIC100 | broth dilution | Clinical isolate | <0.3 µg/mL
N=C(N)N(CCCCCCCCCN=C(N)N)CCCCCCCN=C(N)N |  | MIC50 |  | 4T | 5 µM
CC(C)(C)c1ccc(COC(Cn2ccnc2)c2ccc(Cl)cc2Cl)cc1 |  | MIC |  | CA6 | 64 µg/mL
O=Cc1cc(-c2ccc(Cl)cc2Cl)no1 |  | EC50 |  |  | 24.91 µg/mL
C=C(CN(C)C)C(=O)c1ccccc1 |  | EC50 |  |  | 1.13 µM
c1ccc(-c2n[nH]c(COc3ncnc4ccccc34)n2)cc1 |  | MIC100 |  | MTCC 227 | 12.5 µg/mL
NC(=NCc1ccccc1)NCCCCCCCN1CCCCCCCCN=C(N)NC1=O |  | MIC50 |  | 15T | 5 µM
OC(Cn1cncn1)(Cn1nnc(CCN2CCN(c3ccccc3Cl)CC2)n1)c1ccc(F)cc1F |  | MIC |  | V-01-191A-261 (resistant) | 4 µg/mL
OC(Cn1cncn1)(Cn1cncn1)c1ccc(F)cc1F | 24 h | MIC50 |  | Isolate M27-T-micro | 0.39 µg/mL
CC1CCC(C(C)C)C(OC(=O)/C=C/c2cccc([N+](=O)[O-])c2)C1 |  | MIC |  |  | 4.68 µM
Cc1ccc(N=Nc2ccc(O)c(C[N+](C)(C)COCC3CCC(C)CC3)c2)cc1 |  | MIC |  |  | 143 µM
C=C(CN1CCOCC1)C(=O)c1ccc(Cl)cc1 |  | EC50 |  |  | 9.18 µM
C[C@@H](c1ncncc1F)[C@](O)(Cn1cncn1)c1ccc(F)cc1F |  | MIC80 |  | OY-12-99 (FLU-R) | 0.5 µg/mL
Cc1c(O)cccc1C(=O)N[C@@H](CSc1ccccc1)[C@H](O)CN1C[C@H]2CCCC[C@H]2C[C@H]1C(=O)NC(C)(C)C |  | MIC |  | I21B | 64 µg/mL
Fc1ccc(-c2n[nH]c(COc3ncnc4ccccc34)n2)cc1 |  | MIC100 |  | MTCC 227 | 6.25 µg/mL
Cc1ccc(C(Cn2ccnc2)OCc2cccc3ccccc23)cc1 |  | MIC |  | 5M | >128 µg/mL
CCCCCCCCCCCCCCCC(=O)NC1CCC(O)NC(=O)C2C(O)C(C)CN2C(=O)C(C(O)CC(N)=O)NC(=O)C(C(O)Cc2ccc(O)c(OS(=O)(=O)O)c2)NC(=O)C2CC(O)CN2C(=O)C(C(C)O)NC1=O |  | MIC50 |  | FP582 | 0.03 µg/mL
CCCCON1C(N)=NC(N)=NC1(C)C |  | MIC |  |  | >60 µg/mL
COc1ccccc1N1CCN(CCc2nnn(C(C)C(O)(Cn3cncn3)c3ccc(F)cc3F)n2)CC1 |  | MIC |  | V-01-191A-261 (resistant) | 8 µg/mL
CCC(C)n1ncn(-c2ccc(N3CCN(c4ccc(OC[C@H]5CO[C@](Cn6cncn6)(c6ccc(Cl)cc6Cl)O5)cc4)CC3)cc2)c1=O | pH 6 | EC90 | broth dilution | 10 isolates | 0.06 µg/mL
C#CCNC(N)=NCCCCCCCN1CCCCCCCCN=C(N)NC1=O |  | MIC50 |  | 4T | 80 µM
Cl.Cl.O=C(Nc1ccc(C2=NCCN2)cc1)c1ccc(C(=O)Nc2ccc(C3=NCCN3)cc2)cc1 |  | MIC |  |  | >60 µg/mL
CCC(C)n1ncn(-c2ccc(N3CCN(c4ccc(OC[C@H]5CO[C@](Cn6cncn6)(c6ccc(Cl)cc6Cl)O5)cc4)CC3)cc2)c1=O |  | MIC |  | Darlington | >4 µg/mL
C[C@@H](c1ncncc1F)[C@](O)(Cn1cncn1)c1ccc(F)cc1F |  | MIC |  | Isolate 2-76 | 0.06 µg/mL
NC1=NC2(CCCCC2)N(OCCCCCCCCCCc2ccccc2)C(N)=N1 |  | MIC |  |  | 60 µg/mL
CC1CCC(C(C)C)C(OC(=O)c2ccc(Cl)cc2Cl)C1 |  | MIC |  |  | 19.05 µM
CCCCCCCCC(O)[C@H]1O[C@H]1C(=O)NC1CC1 |  | MIC |  | SC5314 | 6.25 µg/mL
CC[C@@H]([C@H](C)O)n1ncn(-c2ccc(N3CCN(c4ccc(OC[C@@H]5CO[C@@](Cn6cncn6)(c6ccc(F)cc6F)C5)cc4)CC3)cc2)c1=O |  | MIC50 |  | 19 strains (fluconazole-susceptible) | 0.063 µg/mL
Clc1ccc(C(Cn2ccnc2)OCc2ccc(-c3ccccc3)cc2)cc1 |  | MIC |  | 3M | 128 µg/mL

Repeating the first 7 entries:

| smiles | setting | endpoint | read by | strain | result |
|---|---|---|---|---|---|
| COc1ccc2c(Cc3ccc(C(C)(C)C)cc3)c3[n+](cc2c1OC)CCc1cc2c(cc1-3)OCO2 |  | MIC |  | ATCC44373 | 1.56 µg/mL |
| c1coc(-c2n[nH]c(COc3ncnc4ccccc34)n2)c1 |  | MIC100 |  | MTCC 227 | 6.25 µg/mL |
| O=[N+]([O-])c1ccc(N2CCN(CCc3nnn(CC(O)(Cn4cncn4)c4ccc(F)cc4F)n3)CC2)cc1 |  | MIC |  | V-01-191A-261 (resistant) | 8 µg/mL |
| CCCCCCCCOc1ccc(C(=O)NC2C[C@@H](O)[C@@H](O)NC(=O)C3[C@@H](O)[C@@H](C)CN3C(=O)C(C(C)O)NC(=O)C([C@H](O)[C@@H](O)c3ccc(O)cc3)NC(=O)C3C[C@@H](O)CN3C(=O)C(C(C)O)NC2=O)cc1 |  | MIC |  | MY1028 | 0.5 µg/mL |
| Clc1ccc(C(Cn2ccnc2)OC/C=C/c2ccccc2)c(Cl)c1 |  | MIC |  | Y0109 | 4 µg/mL |
| CCCCCCCCC(=O)[C@H]1O[C@H]1C(=O)N(CC)CC |  | MIC |  | F2 sensitive | 6.25 µg/mL |
| COc1ccc(CN2C[C@H](OC[C@@]34C[C@@H]5[C@H](C)CC[C@H]5[C@@]5(C=O)C[C@@H]3CC(C(C)C)[C@@]45C(=O)O)O[C@H](C)C2)cc1 |  | MIC90 |  | 16 isolates/fluconazole resistant | 0.002 µg/mL |